Source: patent US8614182B2 (Jiangsu Hansoh Pharmaceuticals Co., Ltd., priority 2009, dated 2013)

Test: peptide synthesis
Conditions: for step yield: purification step; for final purity (method not given): whole synthesis

H[dA]EGTFTSDVSSYLEEEAAKEFIAWLVRGGPSSGAPPPS
step yield: 25%
final purity (method not given): 98.5%

H[Aib]EGTFTSDVSSYLEEEAAKEFIAWLVRGGPSSGAPPPS
step yield: 22.5%
final purity (method not given): 98.5%

PEPTIDE1{H.A.E.G.T.F.T.S.D.V.S.S.Y.L.E.G.Q.A.A.E.F.I.V.W.L.V.K.G.R.G.K.K.G.G.P.P.P.S}|PEPTIDE2{[Pal16].K}$PEPTIDE1,PEPTIDE2,38:R2-2:R3$$$V2.0
step yield: 25%
final purity (method not given): 98.5%

PEPTIDE1{H.A.E.G.T.F.T.S.D.V.S.S.Y.L.E.E.Q.A.A.E.F.I.V.W.L.V.K.G.R.G.K.K.G.G.P.P.P.S}|PEPTIDE2{[Pal16].K}$PEPTIDE1,PEPTIDE2,38:R2-2:R3$$$V2.0
step yield: 20.5%
final purity (method not given): 98%

Some peptides are written in HELM: one residue between dots, names in brackets for other building blocks, links after the first $. Non-standard residues stand in square brackets, D forms with d. No end group written: not given here. Aib = CC(C)(N)C(=O)O
